Measurements reported in PubChem BioAssay AID504761 (Drosophila RNAi Screening Center, 2011)
Aim: 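Fly genes whose silencing reduces dengue virus type 2 infection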 (primary screen). System: D.Mel-2 cells from Drosophila. Knock-down reagent: long dsRNA against Drosophila genes. Treatment: infection with dengue virus type 2; dose and infection time not stated. Read-out: 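Cells stained for dengue envelope protein and imaged; percent of infected cells per well on duplicate plates, ranked by infection, with stained nuclei counted for cell number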. Direction: infection score: higher = more virus-infected cells; cell count: higher = more cells in the well. Rule for the call: 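Low infection ranks in the two replicates (chance level up to 0.065) followed by a retest with a 1.5-fold or larger significant decrease, p below 0.05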. Meaning of the calls: active = confirmed: knock-down lowers infection; inactive = not picked or not confirmed.
The deposit covers about 22,000 reagents; this is a random part of those that have a named target and a result. Of all reagents, 116 (0.52%) were called active. 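Calls depend on retest data that are not deposited; infection was ranked per plate without normalising between plates; the unit of the infection score is not given.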 Raw values are not corrected between plates. Names joined by + are all predicted targets of the reagent. Not all columns of the deposit are shown. Not given: the amount of reagent, the time to read-out.

no.	gene	dsRNA	infection score, replicate 1	infection score, replicate 2	cell count, replicate 1	Call
1	Su(var)2-10 (Suppressor of variegation 2-10)	DRSC07721	8.18	4.61	6173	inactive
2	Su(var)2-10 (Suppressor of variegation 2-10)	DRSC28335	8.08	0.92	5361	inactive
3	Polr2J (RNA polymerase II subunit J)	DRSC02995	2.46	1.19	6613	inactive
4	Polr2J (RNA polymerase II subunit J)	DRSC27111	34.1	24.6	4512	inactive
5	CG32235	DRSC23257	1.5	18.1	7243	inactive
6	Cyp28d2 (Cytochrome P450 28d2)	DRSC03299	4.68	2.43	6175	inactive
7	Cyp28d2 (Cytochrome P450 28d2)	DRSC27571	11.8	8.9	5849	inactive
8	Gapdh1 (Glyceraldehyde 3 phosphate dehydrogenase 1)	DRSC07433	4.43	5.36	6528	inactive
9	Gapdh1 (Glyceraldehyde 3 phosphate dehydrogenase 1)	DRSC25746	0.6	4.03	6122	inactive
10	CG7632	DRSC11842	6.85	2.63	6660	inactive
11	CG8545	DRSC07210	3.82	5.1	5896	inactive
12	CG18809	DRSC19818	2.56	3.39	4727	inactive
13	CG18809	DRSC24451	3.41	9.92	7127	inactive
14	Fili (Fish-lips)	DRSC04132	6.01	7.78	6470	inactive
15	Fili (Fish-lips)	DRSC04445	6.89	9.99	6703	inactive
16	CG32318 + Klp61F + Psf1	DRSC23255	1.28	3.24	6573	inactive

The list goes on, starting with the last 4 of the part before.
no.	gene	dsRNA	infection score, replicate 1	infection score, replicate 2	cell count, replicate 1	Call
13	CG18809	DRSC24451	3.41	9.92	7127	inactive
14	Fili (Fish-lips)	DRSC04132	6.01	7.78	6470	inactive
15	Fili (Fish-lips)	DRSC04445	6.89	9.99	6703	inactive
16	CG32318 + Klp61F + Psf1	DRSC23255	1.28	3.24	6573	inactive
17	Sgs1 (Salivary gland secretion 1)	DRSC00787	14.1	0.41	6049	inactive
18	Smyd5 (SET and MYND domain containing, class 5)	DRSC15483	17.6	1.06	5653	inactive
19	bur (burgundy)	DRSC03163	10.5	27.6	6193	inactive
20	CG6553	DRSC07002	6.27	14.5	1995	inactive
21	CG14877	DRSC15001	5.34	4.22	6465	inactive
22	CG14877	DRSC30033	6.11	6.67	6334	inactive
23	Vm26Ab (Vitelline membrane 26Ab)	DRSC03473	3.77	3.01	6318	inactive
24	Vm26Ab (Vitelline membrane 26Ab)	DRSC25223	1.8	9.28	6177	inactive
25	CG12460 (retired record)	DRSC20970	4.83	5.65	4780	inactive
26	Cad87A (Cadherin 87A)	DRSC16161	2.3	6.92	6691	inactive
27	Cad87A (Cadherin 87A)	DRSC29158	8.3	15.2	4600	inactive
28	spn-B (spindle B)	DRSC17063	2.56	4.37	6640	inactive
29	spn-B (spindle B)	DRSC26699	7.17	22.3	5314	inactive
30	scramb2 (scramblase 2)	DRSC08543	1.79	4.44	6079	inactive
31	scramb2 (scramblase 2)	DRSC26609	2.07	1.65	5995	inactive
32	CG15602	DRSC19671	12.8	5.75	5770	inactive
33	CG15602	DRSC30101	9.08	8.03	6820	inactive
34	CG9903	DRSC20213	3.93	17.5	6847	inactive
35	CG1812	DRSC20557	5.34	1.45	6052	inactive
36	CG1812	DRSC26769	8.32	4.17	6409	inactive
37	hlk (hulk)	DRSC05021	4.96	12	6599	inactive
38	hlk (hulk)	DRSC05022	18.2	16.3	6058	inactive
39	hlk (hulk)	DRSC26150	5.12	2.37	6364	inactive
